Data as given in patent US4740501A (priority 1985, dated 1988).

Experiments:
MMTV = MMTV production by MJY-alpha cells (radiolabel in purified virus); assay type: cell-based, mouse; conditions: 15.0 uM
MMTV polypeptides = experiment: Polypeptide composition of extracellular MMTV (NaDodSO4-PAGE); assay type: cell-based, mouse; conditions: 15 uM

## L-phenyl-alanine mustard
MMTV; 24 hours
  Relative level of MMTV produced (%): 71.7%
MMTV; 48 hours
  Relative level of MMTV produced (%): 97% and 96.5%
MMTV polypeptides; 24 and 48 hour
  polypeptide profiles of MMTV vs virions from control monolayers: relatively similar
MMTV polypeptides; [3H] Leu (0-24 hr)
  p 24, figure in brackets (level relative to control): 80.2%
MMTV polypeptides; [35S] met (24-48 hr)
  p 24, figure in brackets (level relative to control): 81.4

Several values for one entry are separate records, joined by “and”; a condition that tells them apart may be missing. Equal values may be shown once.
